# Results published in PubChem BioAssay AID1445 (SRMLSC, 2008).
# By UniProt entry, the sequences of proteins in these tests, tags left out. Where a name states a change or a piece, a line headed by the entry shows the natural chain unless it says otherwise.
# UniProt O96935: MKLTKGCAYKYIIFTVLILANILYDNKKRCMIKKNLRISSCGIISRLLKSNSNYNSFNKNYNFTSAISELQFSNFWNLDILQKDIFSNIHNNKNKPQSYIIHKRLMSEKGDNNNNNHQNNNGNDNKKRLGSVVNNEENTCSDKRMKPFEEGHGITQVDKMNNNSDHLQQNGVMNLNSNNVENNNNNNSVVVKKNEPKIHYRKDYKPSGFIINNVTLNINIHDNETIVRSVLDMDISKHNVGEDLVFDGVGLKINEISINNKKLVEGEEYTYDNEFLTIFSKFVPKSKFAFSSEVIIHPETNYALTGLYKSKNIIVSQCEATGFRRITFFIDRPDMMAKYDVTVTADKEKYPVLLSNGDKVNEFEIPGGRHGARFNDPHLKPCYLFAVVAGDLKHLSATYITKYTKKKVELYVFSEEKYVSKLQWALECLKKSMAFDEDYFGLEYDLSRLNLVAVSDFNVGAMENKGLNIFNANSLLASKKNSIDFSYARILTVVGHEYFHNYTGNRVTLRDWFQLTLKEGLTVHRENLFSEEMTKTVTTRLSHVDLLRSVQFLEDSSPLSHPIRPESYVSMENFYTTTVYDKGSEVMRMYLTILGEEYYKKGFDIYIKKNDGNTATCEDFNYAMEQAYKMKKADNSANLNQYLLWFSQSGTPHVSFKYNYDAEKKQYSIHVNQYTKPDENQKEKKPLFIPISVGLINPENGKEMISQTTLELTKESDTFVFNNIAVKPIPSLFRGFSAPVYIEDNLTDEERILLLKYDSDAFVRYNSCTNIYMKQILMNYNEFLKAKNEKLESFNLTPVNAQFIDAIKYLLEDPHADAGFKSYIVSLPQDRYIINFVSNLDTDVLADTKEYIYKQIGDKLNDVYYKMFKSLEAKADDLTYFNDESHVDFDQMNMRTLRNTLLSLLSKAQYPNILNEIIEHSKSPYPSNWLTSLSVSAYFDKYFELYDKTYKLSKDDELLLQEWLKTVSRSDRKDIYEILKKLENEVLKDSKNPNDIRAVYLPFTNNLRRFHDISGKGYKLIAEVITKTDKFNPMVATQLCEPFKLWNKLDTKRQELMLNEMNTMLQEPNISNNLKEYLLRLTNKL
# The entries are a selection whose mix differs from that of the whole data set. Entries with a potency or affinity are not part of this list. Calls of active or inactive are those of the source.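 How the source made its calls: active means primary inhibition above the hit cutoff, then over 50% inhibition at one or more dose response concentrations (cut at about 23% in these data, passing the limit was not always enough); inconclusive means conflicting primary data, or primary hits not chosen for dose response; inactive means low primary inhibition, or under 50% at every dose.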
# Target: Aminopeptidase N (Plasmodium falciparum (isolate 3D7)) (UniProt O96935)
# Test: malaria alanyl aminopeptidase activity blockers – biochemical, fluorogenic H-Leu-NHMec substrate, 1536-well (AID 1445);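 further: plate controls were DMSO full reaction for no effect and no enzyme background for full effect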
# Conditions: recombinant M1AAP, H-Leu-NHMec fluorogenic kinetic assay; at 30 µM; active compounds read high
row,Structure (SMILES),inhibition
1,CC(C)(C)C(=O)NC(Sc1ccncn1)C(Cl)(Cl)Cl (stereo not drawn),inactive: 6.53%
2,O=C(O)CNc1ccc([As](=O)(O)O)cc1,inactive: -1.04%
3,O=[N+]([O-])c1cccc(NC2=NCC(CBr)S2)c1 (stereo not drawn),inactive: -1.78%
4,CCOC(=O)Nc1ccc([As](=O)(O)O)c(O)c1,inactive: 3.03%
5,Cc1cc(SC(NC(=O)c2ccccc2)C(Cl)(Cl)Cl)nc(C(C)C)n1 (stereo not drawn),inactive: 2.21%
6,CCOC(=O)Nc1cccc([As](=O)(O)O)c1,inactive: 1.93%
7,Cc1cc(SC(NC=O)C(Cl)(Cl)Cl)ncn1 (stereo not drawn),inactive: -4.26%
8,O=P(Nc1ccccn1)(c1cccc2ccccc12)c1cccc2ccccc12,inactive: 3.93%
9,O=[N+]([O-])c1ccc(Nc2ccc(Oc3ccc([N+](=O)[O-])cc3[N+](=O)[O-])cc2)c([N+](=O)[O-])c1,inactive: 3.78%
10,COP1(=S)c2c(C)nn(CCC#N)c2N=C(c2ccc(F)cc2)N1C (stereo not drawn),inactive: -1.62%
11,O=C(COc1ccccc1)OC1CN2CCC1CC2 (stereo not drawn),inactive: 2.01%
12,CCOC(=O)c1ccc(NC(=O)C(C)(CCl)SC)cc1 (stereo not drawn),inactive: 1.83%
13,CCC(C)N(CC(C)C)C(=S)SC(NC(C)=O)C(Cl)(Cl)Cl (stereo not drawn),inactive: 6.12%
14,Cc1c2c(nc3ccccc13)SC(C(Cl)Cl)C2 (stereo not drawn),inactive: 7.47%
15,O=C(OC1CN2CCC1CC2)C12CC3CC(CC(C3)C1)C2 (stereo not drawn),inactive: 3.66%
16,Cc1cc(=O)[nH]c(N[N+](=O)[O-])n1,inactive: 5.14%
17,COc1ccc2nc(NP(=O)(c3ccccc3)c3ccccc3)sc2c1,inactive: 2.85%
18,COc1cc(I)ccc1[As](=O)(O)O,inactive: 2.09%
19,COc1ccc(N/C(=N/P(=O)(N2CCOCC2)N2CCOCC2)N2CCOCC2)cc1,inactive: 6.36%
20,O=[As](O)(c1ccc(O)cc1)c1ccccc1O,inactive: 14.7%
21,C[As](=O)(O)c1cccc(C(=O)O)c1,inactive: 6.19%

row,Structure (SMILES),inhibition
1,Cc1ccc(OP(=O)(Nc2ccc([N+](=O)[O-])cn2)Oc2ccc(C)cc2)cc1,inactive: 1.72%
2,Cc1ccc2nc3c(c(C)c2c1)CC(C(Cl)Cl)S3 (stereo not drawn),inactive: 2.2%
3,ClCCSc1nnc(-c2cccnc2)o1,inactive: 1.22%
4,CC(C)c1ccc(OP(=O)(Nc2ccccn2)Oc2ccccc2F)cc1 (stereo not drawn),inactive: 2.72%
5,CCN(CC)C(=S)SC(NC=O)C(Cl)(Cl)Cl (stereo not drawn),inactive: 5.9%
6,CC(C)NC(=O)NP(=O)(Oc1ccccc1)Oc1ccccc1,inactive: 2.81%
7,O=[N+]([O-])c1cc([N+](=O)[O-])c(-c2ccn[nH]2)s1,inactive: 8.61%
8,CCOP1(=S)c2c(C)nn(CCC#N)c2N=C(c2ccccc2F)N1C (stereo not drawn),inactive: 6.47%
9,O=P(Nc1nccs1)(c1ccccc1)c1nc2ccccc2s1 (stereo not drawn),inactive: 0.07%
10,O=P(Nc1nccs1)(Oc1ccccc1)Oc1ccccc1,inactive: 6.54%
11,CS(=O)(=O)c1cc([N+](=O)[O-])c2no[n+]([O-])c2c1,inactive: 19.1%
12,O=C(O)COc1ccc([As](=O)(O)O)cc1[N+](=O)[O-],inactive: 0.26%
13,Nc1ccccc1[As](=O)(O)c1ccccc1,inactive: 1.5%
14,CCOP1(=S)c2c(C)nn(CCC#N)c2N=C(c2ccc(F)cc2)N1C (stereo not drawn),inactive: -8.14%
15,CN(C(=O)Cc1ccccc1)[C@@H]1CC[C@]2(CCCO2)C[C@H]1N1CCCC1,inactive: 0.98%
16,O=[N+]([O-])c1ccc2c(c1)nnn2O,inactive: 3.45%
17,O=C(OC1CN2CCC1CC2)c1ccc(Cl)cc1 (stereo not drawn),inactive: -1.41%
18,COc1cc(C(=O)NCC2(N3CCOCC3)CCCCC2)cc(Cl)c1OC(C)C,inactive: 5.65%
19,O=[As](O)(O)c1cccnc1,inactive: 0.82%
20,O=[As](O)(c1cccc(O)c1)c1cccc(O)c1,inactive: 3.55%
21,Cc1cccc(OCC(=O)OC2CN3CCC2CC3)c1 (stereo not drawn),inactive: 5.19%

row,Structure (SMILES),inhibition
1,Nc1cccc2c([As](=O)(O)O)cccc12,inactive: -0.6%
2,Cc1ccc(NCCc2c([N+](=O)[O-])cc([N+](=O)[O-])cc2[N+](=O)[O-])cc1,inactive: 8.89%
3,CCCOP(=S)(Nc1nc(N)cc(=O)[nH]1)OCCC,inactive: -1.88%
4,COc1cc(C2NCCC3(OCCO3)C2(C)C)cc(OC)c1OC (stereo not drawn),inactive: 1.15%
5,CCOP(=O)(Nc1cccc2ccccc12)OCC,inactive: 6.05%
6,O=P1(Nc2ccccn2)COc2ccccc2OC1,inactive: 8.23%
7,CCOP(=O)(Nc1ccc(C)cn1)OCC,inactive: -4.97%
8,Clc1n[nH]nc1-c1nn[nH][15n]1,inactive: 22.6%
9,CC(C)(C)C(=O)NC(Sc1ncccn1)C(Cl)(Cl)Cl (stereo not drawn),inactive: -0.4%
10,CN(C(=O)Cc1ccc(Cl)c(Cl)c1)[C@@H]1CCCC[C@H]1N1CCCC1,inactive: -3.71%
11,CC(C)/C=N\N=C(\N)N[N+](=O)[O-],inactive: 3.44%
12,O=[As](O)(c1ccccc1Br)c1ccccc1Br,inactive: 4.03%
13,Cc1nn(-c2ccccc2)c2c1P(=O)(N1CCOCC1)N(C)C(c1ccccc1)=N2 (stereo not drawn),inactive: -0.77%
14,CC1CCC(C(C)C)C(OP(=O)(Nc2ccccn2)c2ccccc2)C1 (stereo not drawn),inactive: 6.17%
15,CN(C)C1(CNC(=O)c2ccc(S(C)(=O)=O)cc2)CCCCC1,inactive: -1.08%
16,O=C(/C=C/c1ccccc1)OC1CN2CCC1CC2 (stereo not drawn),inactive: -1.56%
17,O=P1(Nc2ncccn2)COc2ccccc2OC1,inactive: 10.6%
18,Nc1cccc([As](=O)(O)c2ccccc2)c1,inactive: 0.95%
19,O=P1(Nc2ccc(Br)cn2)COc2ccccc2OC1,inactive: 2.66%
20,O=[As](O)(c1cccs1)c1cccs1,inactive: 2.13%
21,Cc1ccc(OCC(=O)OC2CN3CCC2CC3)cc1 (stereo not drawn),inactive: 4.69%
